Source: patent US20250002455A1, “NEW N-PHENYLPYRROLAMIDE INHIBITORS OF DNA GYRASE AND TOPOISOMERASE IV WITH ANTIBACTERIAL ACTIVITY” (priority 2020, published 2025)

Columns and labels:
Assay in all cases: Microbroth dilution MIC (CLSI)
[1] = system: P. aeruginosa ATCC 27853; format: cell-based, Pseudomonas aeruginosa; conditions: tested form: HCl
Experimental: (§1) The chemical entities described in the present invention were assessed for their antimicrobial activity using a microbroth dilution assay as recommended by the CLSI (Methods for Dilution Antimicrobial Susceptibility Tests for Bacteria That Grow Aerobically, and Methods for Antimicrobial Susceptibility Testing of Anaerobic Bacteria, Clinical and Laboratory Standards Institute, Document M07-A8, and M11-A8, Wayne, PA 19087, USA, 2012.). Compounds were dissolved by using 100% DMSO. Serial two-fold dilutions of each compound were made by using 100% DMSO as the diluent.
(§2) A library of Gram-negative and Gram-positive microbes and their drug- and multidrug-resistant variants were employed as test organisms. The MIC (minimum inhibitory concentration) was determined as the lowest concentration of an individual drug that lead to no visible growth.

[2] = system: A. baumannii (ATCC 19606); format: cell-based, Acinetobacter baumannii; conditions: tested form: HCl
Experimental: as §1, §2

[3] = system: K. pneumoniae (ATCC 700603); format: cell-based, Klebsiella pneumoniae; conditions: tested form: HCl
Experimental: as §1, §2

[4] = system: E. coli ATCC 25922; format: cell-based, Escherichia coli; conditions: tested form: HCl
Experimental: as §1, §2

[5] = system: S. aureus ATCC 29213; format: cell-based, Staphylococcus aureus; conditions: tested form: HCl
Experimental: as §1, §2

[6] = system: E. faecium (ATCC 35667); format: cell-based, Enterococcus faecium; conditions: E. faecium (ATCC 35667) Päivi; tested form: HCl
Experimental: as §1, §2

[7] = system: E. aerogenes (ATCC 13408); format: cell-based, Enterobacter aerogenes; conditions: tested form: HCl
Experimental: as §1, §2

Measured: MIC

Cc1[nH]c(C(=O)Nc2ccc(C(=O)NCC(=O)O)cc2N2CC[C@H](N)C2)c(Cl)c1Cl
≥64 mg/L: [1] | [2] | [3] | [4] | [5] | [6] | [7]
